A mixed list of measured activities; the numbers were collected in NIAID ChemDB.

Shared fields: tests on isolated targets

ICn: concentration for n% inhibition. Conditions beyond the fields shown may differ between rows. a–b is a range or a potency band. Inhibition is in % at the dose shown (toxicity tests: loss of growth or viability).

Cc1ccc(C(=O)N(Cc2ccccc2)c2cc(-c3ccccc3)sc2C(=O)O)cc1 ; target: NS3 ATPase ; endpoint: IC50 ; species: Hepatitis C virus ; value: <5 µM
CCOC(=O)c1csc(COc2cc3c(C(=O)NC)c(-c4ccc(F)cc4)oc3cc2N(C)S(C)(=O)=O)n1 ; target: Nonstructural protein 5B ; endpoint: IC50 ; species: Hepatitis C virus ; value: ≤0.5 µM
COc1cccc(-c2cc(-c3ccc(Cl)cc3Cl)nc3cc(C(=O)O)nn23)c1 ; target: RNA-dependent RNA polymerase ; endpoint: IC50 ; species: Hepatitis C virus ; value: >10 µM
O=C(O)c1ccc2c(c1)nc(-c1ccc3nc(-c4cc[nH]c4)ccc3c1)n2C1CCCCC1 ; target: NS5B polymerase ; endpoint: inhibition ; dose: 33 µM ; species: Hepatitis C virus ; value: 88.94%
CC(C)N(C(=O)c1ccc(F)cc1)c1cc(-c2ccccc2)sc1C(=O)O ; target: NS3 ATPase ; endpoint: IC50 ; species: Hepatitis C virus ; value: 5–20 µM
O=C(NCc1ccccc1Cl)Nc1ccc(NC(=O)c2cccs2)cc1-c1nc(C(=O)O)c(O)c(=O)[nH]1 ; target: HCV polymerase ; endpoint: IC50 ; species: Hepatitis C virus ; value: <100 µM
COc1ccc(-c2cc(-c3ccc(OCc4ccccc4)cc3)nc3cc(C(=O)O)nn23)cc1 ; target: RNA-dependent RNA polymerase ; endpoint: IC50 ; species: Hepatitis C virus ; value: 1–10 µM
CNC(=O)c1c(-c2ccc(F)cc2)oc2cc(N(CS(C)(=O)=O)c3cscn3)c(OC)cc12 ; target: Nonstructural protein 5B ; endpoint: IC50 ; species: Hepatitis C virus ; value: ≤0.5 µM
O=C(Nc1cscc1-c1nc(C(=O)O)c(O)c(=O)[nH]1)N[C@H]1c2ccccc2C[C@H]1O ; target: HCV polymerase ; endpoint: IC50 ; species: Hepatitis C virus ; value: <25 µM
CNC(=O)c1ccc(-c2ccccc2)c(-c2ccc3cc(-c4nc5cc(C(=O)O)ccc5n4C4CCCCC4)ccc3n2)c1 ; target: NS5B polymerase ; endpoint: inhibition ; dose: 100 µM ; species: Hepatitis C virus ; value: 98.43%
O=C(NCCc1ccccn1)Nc1cscc1-c1nc(C(=O)O)c(O)c(=O)[nH]1 ; target: HCV polymerase ; endpoint: IC50 ; species: Hepatitis C virus ; value: <25 µM
CCOC(=O)c1cnn2c(-c3ccc(OCc4ccccc4)cc3)c(-c3ccccc3)cnc12 ; target: RNA-dependent RNA polymerase ; endpoint: IC50 ; species: Hepatitis C virus ; value: >10 µM
COc1nc(NCCCN2CCCC2=O)nc(Nc2ccc3cn[nH]c3c2)n1 ; target: DNA polymerase ; endpoint: inhibition ; dose: 0.01 µg/mL ; species: Hepatitis B virus ; value: 16%
O=C(O)c1ccc2c(c1)nc(-c1ccc3c(c1)CCC(c1ccccc1)N3)n2C1CCCCC1 ; target: NS5B polymerase ; endpoint: inhibition ; dose: 100 µM ; species: Hepatitis C virus ; value: 101%
COc1ccc(-c2cc(N(C(=O)C3CCC(C)CC3)C(C)C)c(C(=O)O)s2)cc1 ; target: NS3 ATPase ; endpoint: IC50 ; species: Hepatitis C virus ; value: <5 µM
O=C(NC(Cc1c[nH]c2ccc(O)cc12)C(=O)O)c1ccc2c(c1)nc(-c1ccc3ncc(-c4ccccc4)nc3c1)n2C1CCCCC1 ; target: NS5B polymerase ; endpoint: inhibition ; dose: 33 µM ; species: Hepatitis C virus ; value: 99.19%
CCOC(=O)C1=CN(N2CCN(c3nc(Nc4ccc5[nH]ncc5c4)nc(OC)n3)CC2)C(SC)N=C1 ; target: DNA polymerase ; endpoint: inhibition ; dose: 0.1 µg/mL ; species: Hepatitis B virus ; value: 3%
CCC(=O)N(Cc1cccc(OC)c1)c1cc(-c2ccccc2)sc1C(=O)O ; target: NS3 ATPase ; endpoint: IC50 ; species: Hepatitis C virus ; value: >20 µM
Cn1c2ccc(Cl)cc2c2cc(-c3ccc4cc(-c5nc6cc(C(=O)O)ccc6n5C5CCCCC5)ccc4n3)ccc21 ; target: NS5B polymerase ; endpoint: inhibition ; dose: 33 µM ; species: Hepatitis C virus ; value: 95.99%
COc1nc(NCCCN2CCOCC2)nc(Nc2ccc3[nH]ncc3c2)n1 ; target: DNA polymerase ; endpoint: inhibition ; dose: 1 µg/mL ; species: Hepatitis B virus ; value: 68%
COc1ccc(-c2ccc(Cl)cc2)c(-c2ccc3cc(-c4nc5cc(C(=O)O)ccc5n4C4CCCCC4)ccc3n2)c1 ; target: NS5B polymerase ; endpoint: inhibition ; dose: 33 µM ; species: Hepatitis C virus ; value: 101%
Cc1cccc(C)c1S(=O)(=O)Nc1cc(-c2ccccc2)sc1C(=O)O ; target: NS3 ATPase ; endpoint: IC50 ; species: Hepatitis C virus ; value: <5 µM
O=C(N[C@H](C(=O)O)c1ccc(O)cc1)c1cc2nc(-c3ccco3)c(C3CCCCC3)c(=O)n2[nH]1 ; target: RNA-dependent RNA polymerase ; endpoint: IC50 ; species: Hepatitis C virus ; value: <1 µM
O=C(O)c1nc(-c2sccc2NC(=O)C(NC/C=C/c2ccccc2)c2ccccc2)[nH]c(=O)c1O ; target: HCV polymerase ; endpoint: IC50 ; species: Hepatitis C virus ; value: <25 µM
NC(N)=NCCCC(NC(=O)c1ccc2c(c1)nc(-c1cc3ncc(-c4ccccc4)nc3cc1F)n2C1CCCCC1)C(=O)O ; target: NS5B polymerase ; endpoint: inhibition ; dose: 100 µM ; species: Hepatitis C virus ; value: 94.97%
COc1nc(NCCc2ccccn2)nc(Nc2ccc3cn[nH]c3c2)n1 ; target: Nonstructural protein 5B ; endpoint: inhibition ; dose: 10 µg/mL ; species: Hepatitis C virus ; value: 66%
O=C(NS(=O)(=O)Cc1ccccc1)c1cnn2c(C3CCCCC3)c(-c3ccc(F)cc3)cnc12 ; target: RNA-dependent RNA polymerase ; endpoint: IC50 ; species: Hepatitis C virus ; value: <1 µM
CNC(=O)C1CCN(c2nc(Nc3ccc4[nH]ncc4c3)nc(OC)n2)CC1 ; target: Nonstructural protein 5B ; endpoint: inhibition ; dose: 0.1 µg/mL ; species: Hepatitis C virus ; value: 0%
Cc1ccc(C(=O)N(C)c2cc(-c3cccc(F)c3)sc2C(=O)O)cc1 ; target: NS3 ATPase ; endpoint: IC50 ; species: Hepatitis C virus ; value: <5 µM
CNC(=O)c1c(-c2ccc(Cl)s2)oc2ccc(OC)cc12 ; target: Nonstructural protein 5B ; endpoint: IC50 ; species: Hepatitis C virus ; value: ≤0.5 µM
O=C(Nc1ccccc1-c1nc(C(=O)O)c(O)c(=O)[nH]1)c1cccc([N+](=O)[O-])c1 ; target: HCV polymerase ; endpoint: IC50 ; species: Hepatitis C virus ; value: <100 µM
O=C(O)c1cnn2c(C3CCCCC3)c(-c3ccccc3)cnc12 ; target: RNA-dependent RNA polymerase ; endpoint: IC50 ; species: Hepatitis C virus ; value: 1–10 µM
O=C(NCCc1ccccc1F)Nc1ccsc1-c1nc(C(=O)O)c(O)c(=O)[nH]1 ; target: HCV polymerase ; endpoint: IC50 ; species: Hepatitis C virus ; value: <25 µM
O=C(O)c1ccc2c(c1)nc(-c1ccc3nc(-c4cc(OCC(=O)N5CCCC5)ccc4-c4ccc(Cl)cc4)ccc3c1)n2C1CCCCC1 ; target: NS5B polymerase ; endpoint: inhibition ; dose: 100 µM ; species: Hepatitis C virus ; value: 97.19%
CNC(=O)c1c(-c2ccc(F)cc2)oc2cc(N(C)S(C)(=O)=O)c(OCC(C)=O)cc12 ; target: Nonstructural protein 5B ; endpoint: IC50 ; species: Hepatitis C virus ; value: ≤0.5 µM
COc1cc(C[C@H](NC(=O)c2cc3nc(-c4ccco4)c(C4CCCCC4)c(=O)n3[nH]2)C(=O)O)ccc1O ; target: RNA-dependent RNA polymerase ; endpoint: IC50 ; species: Hepatitis C virus ; value: <1 µM
Cc1c(Cl)cccc1S(=O)(=O)Nc1ccccc1-c1nc(C(=O)O)c(O)c(=O)[nH]1 ; target: HCV polymerase ; endpoint: IC50 ; species: Hepatitis C virus ; value: <100 µM